Measured values from several laboratories, pooled; numbers as filed in NIAID ChemDB.

Common to all: target-level tests; species: Pneumocystis carinii

Two numbers with a dash give a range or band. ICn is the concentration giving n% inhibition. Neighbouring rows are from separate reports. Blank or dashed fields: not listed here. Percent inhibition refers to the dose given; in toxicity tests it is the harm to the cells.

{"smiles": "Nc1nc(N)c2c(ccc3ccc(Cl)cc32)n1", "protein": "Dihydrofolate reductase", "read-out": "IC50", "result": "0.12 µM"}
{"smiles": "COc1cc(Cc2cnc(N)nc2N)cc(OCCC(=O)NC(CC(=O)O)C(=O)O)c1Br", "protein": "DHFR", "read-out": "IC50", "result": "2 µM"}
{"smiles": "O=C(O)c1c(Cl)c(Cl)c(Cl)c(Cl)c1C(=O)N(c1ccccc1)c1ccco1", "protein": "DHFR", "read-out": "inhibition", "tested at": "100 µM", "result": "12%"}
{"smiles": "Nc1nc(N)c(-c2ccc(Cl)c(Cl)c2)c(/C=C/c2ccc3ccccc3c2)n1", "protein": "Dihydrofolate reductase", "read-out": "IC50", "result": "12.8 µM"}
{"smiles": "CN1CCN(c2ccc3nc(-c4ccc5nc(-c6ccc(O)cc6)[nH]c5c4)[nH]c3c2)CC1", "protein": "Topoisomerase I", "read-out": "IC50", "result": "12.5 µM"}
{"smiles": "Nc1nc(N)c(-c2ccc(Cl)cc2)c(C(F)(F)F)n1", "protein": "DHFR", "read-out": "IC50", "result": ">42 µM"}
{"smiles": "c1cc2nc(CCCCc3nc4ccc(C5=NCCN5)cc4[nH]3)[nH]c2cc1C1=NCCN1", "protein": "Topoisomerase II", "read-out": "IC50", "result": "0.31–1.25 µM"}
{"smiles": "CN(Cc1cnc2nc(N)nc(N)c2n1)c1ccc(C(=O)NC(CCC(=O)NC(CCC(=O)O)C(=O)O)C(=O)O)cc1", "protein": "Dihydrofolate reductase", "read-out": "IC50", "result": "0.0002 µM"}
{"smiles": "COc1ccc2c(c1)CCN2Cc1cnc2nc(N)nc(N)c2c1C", "protein": "Dihydrofolate reductase", "read-out": "IC50", "result": "0.29 µM"}
{"smiles": "CN(Cc1cnc2nc(N)nc(N)c2n1)c1ccc(C(=O)N[C@H](CCC(=O)O)C(=O)O)cc1F", "protein": "Dihydrofolate reductase", "read-out": "IC50", "result": "0.00072 µM"}
{"smiles": "Nc1ccc(S(=O)(=O)Nc2ncccn2)cc1", "protein": "Oxidosqualene cyclase", "read by": "HPLC", "read-out": "IC50", "result": ">500 µM"}
{"smiles": "CC(=O)NS(=O)(=O)c1ccc(NC(=O)c2ccccc2C(=O)O)cc1", "protein": "DHPS", "read-out": "IC50", "result": ">10 µM"}
{"smiles": "CN(Cc1cnc2nc(N)nc(N)c2n1)c1ccc(C(=O)N[C@@H](CCC(=O)O)C(=O)O)cc1C(F)(F)F", "protein": "DHFR", "read-out": "IC50", "result": "0.00031 µM"}
{"smiles": "Nc1nc(N)c2c(n1)Cc1ccc(Cl)cc1-2", "protein": "Dihydrofolate reductase", "read-out": "IC50", "result": "5.6 µM"}
{"smiles": "Nc1ccc(S(=O)(=O)Nc2nccs2)cc1", "protein": "DHPS", "read-out": "Ki", "result": "0.0105 µM"}
{"smiles": "O=C(O)c1cc(Sc2ccc(O)c(C(=O)O)c2)ccc1O", "protein": "DHFR", "read-out": "inhibition", "tested at": "100 µM", "result": "13%"}
{"smiles": "CCc1nc(N)nc(N)c1-c1ccc(Cc2ccccc2)c([N+](=O)[O-])c1", "protein": "DHFR", "read-out": "IC50", "result": "1.03 µM"}
{"smiles": "Nc1nc(N)c(-c2ccc(Cl)c(Cl)c2)c(/C=C/Cc2ccccc2)n1", "protein": "Dihydrofolate reductase", "read-out": "IC50", "result": "0.5 µM"}
{"smiles": "Nc1ccc(S(=O)(=O)Nc2ncccn2)cc1", "protein": "DHPS", "read-out": "IC50", "result": "0.19 µM"}
{"smiles": "Nc1nc(N)c2c(ccc3ccccc32)n1", "protein": "Dihydrofolate reductase", "read-out": "IC50", "result": "1.6 µM"}
{"smiles": "COc1cc(OC)cc(N2C3CCC2CC(OCc2cnc(N)nc2N)C3)c1", "protein": "DHFR", "read-out": "IC50", "result": "0.016 µM"}
{"smiles": "Nc1nc(N)c2c(n1)CCc1cc(Cl)c(Cl)cc1-2", "protein": "Dihydrofolate reductase", "read-out": "IC50", "result": "20 µM"}
{"smiles": "COc1cc(NS(=O)(=O)c2ccc(N)cc2)c2ncccc2c1", "protein": "DHPS", "read-out": "IC50", "result": "0.38 µM"}
{"smiles": "N=C(N)c1ccc2nc(CCc3nc4ccc(C(=N)N)cc4[nH]3)[nH]c2c1", "protein": "Topoisomerase I", "read-out": "IC50", "result": "≤10 µM"}
{"smiles": "Nc1nc(N)c2nc(CO)cnc2n1", "protein": "Dihydrofolate reductase", "read-out": "IC50", "result": ">51 µM"}
{"smiles": "Cc1c(CNc2ccc(Cl)c(C(=O)NC(CC(=O)O)C(=O)O)c2)ccc2nc(N)nc(N)c12", "protein": "Dihydrofolate reductase", "read-out": "IC50", "result": "0.0054 µM"}
{"smiles": "O=C1C(=O)c2ccccc2C(O)=C1C1CCC(c2ccc(Cl)cc2)CC1", "protein": "Dihydroorotate dehydrogenase", "read-out": "inhibition", "tested at": "1 µM", "result": "0.7%"}
{"smiles": "O=C(O)COCC(=O)NNC(=O)c1ccncc1", "protein": "DHFR", "read-out": "inhibition", "tested at": "100 µM", "result": "14%"}
{"smiles": "Nc1nc(N)c2nc(CNc3ccccc3)cnc2n1", "protein": "DHFR", "read-out": "IC50", "result": ">1.9 µM"}
{"smiles": "COc1cc(Cc2cnc(N)nc2N)cc(OC)c1-n1cccc1", "protein": "DHFR", "read-out": "IC50", "result": "29 µM"}
{"smiles": "CCc1c(CNc2ccc(C(=O)NC(CC(=O)O)C(=O)O)cc2)ccc2nc(N)nc(N)c12", "protein": "DHFR", "read-out": "IC50", "result": "0.0097 µM"}
{"smiles": "Cc1noc(NS(=O)(=O)c2ccc(N)cc2)c1C", "protein": "DHPS", "read-out": "IC50", "result": ">0.05 µM"}
{"smiles": "CC(=O)Nc1ccc(C(=O)O)c(C(=O)c2ccccc2Cl)c1", "protein": "DHFR", "read-out": "inhibition", "tested at": "100 µM", "result": "26%"}
{"smiles": "Nc1nc(N)c2nc(COc3ccccc3)cnc2n1", "protein": "Dihydrofolate reductase", "read-out": "IC50", "result": "136 µM"}
{"smiles": "c1cc2nc(CCCCc3nc4ccc(C5=NCCN5)cc4[nH]3)[nH]c2cc1C1=NCCN1", "protein": "Topoisomerase I", "read-out": "IC50", "result": "1.25 µM"}
{"smiles": "CC(=CCC/C(C)=C/CO)CCCN(C)C", "protein": "Oxidosqualene cyclase", "read-out": "IC50", "result": ">10 µM"}

2 of the rows above, restated:

smiles	protein	read by	read-out	tested at	result
CC(=O)NS(=O)(=O)c1ccc(NC(=O)c2ccccc2C(=O)O)cc1	DHPS		IC50		>10 µM
O=C(O)COCC(=O)NNC(=O)c1ccncc1	DHFR		inhibition	100 µM	14%